## PSTVd loop 15 mutant pool in Nicotiana benthamiana

Source: Wu et al. 2024 (doi:10.1371/journal.ppat.1012142), supplementary data.

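A pool of all variants was put on leaves of three Nicotiana benthamiana plants. Samples came from the inoculated region at 5 days, the leaf margin at 10 and upper systemic leaves at 12.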

PSTVd intermediate strain, loop 15: wild type GGAAACCGCUACUAC, pool pattern GGAAACCGNNNNNNC; upper and lower strand joined, each 5' to 3', the first 7 letters being the upper strand, closing pairs included.

Numbers give reads per thousand; 0 = not seen among the reads, higher = more abundant.
Each site shows the three plants.
"Pool" is the share in the plasmid pool used as inoculum, on the same scale.
The inoculated region was read from the minus strand, the other sites from the plus strand.

sequence | pool | inoculated region | leaf margin | systemic leaves
GGAAACCGAUUCCAC | 0.288 | 0.0983 0.0321 0.114 | 0.0323 0.0445 0.0401 | 0 0 0
GGAAACCGAUUCCCC | 0.256 | 0.0983 0.0482 0.0952 | 0 0 0 | 0 0 0
GGAAACCGAUUCCGC | 0.336 | 0.115 0.209 0.228 | 0.0323 0.0223 0.0200 | 0.0161 0 0
GGAAACCGAUUCCUC | 0.0640 | 0.0491 0.193 0.228 | 0 0 0 | 0 0 0
GGAAACCGAUUCGAC | 0.208 | 0.229 0.257 0.0762 | 0 0.0445 0.0200 | 0 0 0
GGAAACCGAUUCGCC | 0.192 | 0.0819 0.129 0.152 | 0 0.0223 0.0200 | 0 0 0
GGAAACCGAUUCGGC | 0.176 | 0 0.0803 0.0952 | 0 0.0223 0.0200 | 0.0161 0 0
GGAAACCGAUUCGUC | 0.304 | 0.115 0.0964 0.133 | 0.0323 0 0.0200 | 0.0322 0 0
GGAAACCGAUUCUAC | 0.144 | 0.246 0.225 0.419 | 0.146 0.0668 0.0401 | 0.0483 0.0454 0.205
GGAAACCGAUUCUCC | 0.240 | 0.0655 0.0482 0.0762 | 0 0.0223 0.0200 | 0.0161 0 0
GGAAACCGAUUCUGC | 0.176 | 0.0655 0.0964 0.0762 | 0.0323 0 0 | 0 0 0
GGAAACCGAUUCUUC | 0.256 | 0.0983 0.0643 0.152 | 0 0 0 | 0 0 0
GGAAACCGAUUGAAC | 0.176 | 0.262 0.225 0.438 | 0.194 0.134 0.160 | 0.0161 0 0
GGAAACCGAUUGACC | 0.240 | 0.0328 0.145 0.0190 | 0 0.0223 0 | 0 0 0
GGAAACCGAUUGAGC | 0.256 | 0.115 0.129 0.0762 | 0 0 0 | 0 0 0
GGAAACCGAUUGAUC | 0.272 | 0.377 0.305 0.114 | 0 0.0223 0.0401 | 0 0 0
GGAAACCGAUUGCAC | 0.160 | 0.164 0.112 0.0381 | 0 0 0 | 0.0161 0 0
GGAAACCGAUUGCCC | 0.224 | 0.0983 0.0643 0.0571 | 0.0485 0 0 | 0 0 0
GGAAACCGAUUGCGC | 0.240 | 0.0983 0.161 0.0190 | 0 0 0.0200 | 0 0 0
GGAAACCGAUUGCUC | 0.160 | 0.0819 0.129 0.0381 | 0 0.0223 0.0200 | 0 0 0
GGAAACCGAUUGGAC | 0.272 | 0.131 0.0643 0.0381 | 0 0 0.0200 | 0 0 0
GGAAACCGAUUGGCC | 0.176 | 0.0655 0.0321 0.0762 | 0 0 0 | 0 0 0
GGAAACCGAUUGGGC | 0.192 | 0.147 0.209 0.152 | 0.0162 0 0 | 0 0.0151 0
GGAAACCGAUUGGUC | 0.224 | 0.0983 0.0964 0.114 | 0 0.0223 0.0601 | 0.0161 0 0
GGAAACCGAUUGUAC | 0.224 | 0.459 0.273 0.324 | 0.113 0.134 0.100 | 0.0161 0.0303 0.137
GGAAACCGAUUGUCC | 0.256 | 0.295 0.353 0.457 | 0.0970 0.134 0.100 | 0.0483 0 0
GGAAACCGAUUGUGC | 0.272 | 0.311 0.257 0.362 | 0.162 0.156 0.160 | 0.0322 0 0
GGAAACCGAUUGUUC | 0.224 | 0.442 0.305 0.305 | 0.0970 0.156 0.100 | 0.0644 0.0756 0.114
GGAAACCGAUUUAAC | 0.304 | 0.0491 0.0964 0.114 | 0.0162 0 0.0200 | 0 0 0
GGAAACCGAUUUACC | 0.208 | 0.0983 0.177 0.171 | 0.0485 0 0.0200 | 0 0.0303 0
GGAAACCGAUUUAGC | 0.304 | 0.180 0.0803 0.0762 | 0.0162 0.0223 0 | 0 0 0
GGAAACCGAUUUAUC | 0.240 | 0.115 0.289 0.190 | 0.0323 0 0.0200 | 0 0 0
GGAAACCGAUUUCAC | 0.240 | 0.0983 0.129 0.0381 | 0 0 0 | 0 0 0
GGAAACCGAUUUCCC | 0.240 | 0.147 0.0482 0.171 | 0 0 0.0200 | 0 0 0
GGAAACCGAUUUCGC | 0.224 | 0.115 0.129 0.0762 | 0.0162 0 0 | 0.0161 0 0
GGAAACCGAUUUCUC | 0.352 | 0.0983 0.129 0.190 | 0.0162 0 0.0401 | 0 0 0
GGAAACCGAUUUGAC | 0.176 | 0.131 0.0161 0.0762 | 0.0162 0 0.0200 | 0 0 0
GGAAACCGAUUUGCC | 0.336 | 0.0819 0.0964 0.0952 | 0 0 0.0801 | 0 0 0
GGAAACCGAUUUGGC | 0.0960 | 0.164 0.193 0.286 | 0.0162 0 0.0200 | 0 0 0
GGAAACCGAUUUGUC | 0.208 | 0.147 0.112 0.152 | 0 0 0 | 0 0 0
GGAAACCGAUUUUAC | 0.256 | 0.360 0.305 0.419 | 0.0647 0.0891 0.180 | 0.0805 0.121 0.114
GGAAACCGAUUUUCC | 0.176 | 0.0491 0.112 0.133 | 0.0162 0 0 | 0 0 0
GGAAACCGAUUUUGC | 0.176 | 0.0328 0.112 0.209 | 0 0 0.0200 | 0 0 0
GGAAACCGAUUUUUC | 0.192 | 0.0983 0.0803 0.0952 | 0 0 0.0200 | 0 0 0
GGAAACCGCAAAAAC | 0.208 | 0.262 0.241 0.171 | 0 0.0668 0 | 0 0 0
GGAAACCGCAAAACC | 0.304 | 0.131 0.0803 0.0381 | 0.0162 0.0223 0.0200 | 0 0 0
GGAAACCGCAAAAGC | 0.224 | 0.147 0.0643 0.0762 | 0 0.0223 0.0200 | 0 0 0
GGAAACCGCAAAAUC | 0.144 | 0.115 0.0321 0.0381 | 0 0.0223 0.0200 | 0 0 0.0228
GGAAACCGCAAACAC | 0.256 | 0.442 0.337 0.362 | 0.178 0.0668 0.160 | 0.0483 0 0
GGAAACCGCAAACCC | 0.240 | 0.0819 0.0803 0.171 | 0 0 0 | 0 0.0151 0
GGAAACCGCAAACGC | 0.224 | 0.164 0.112 0.0952 | 0.0162 0 0 | 0 0 0
GGAAACCGCAAACUC | 0.240 | 0.0491 0.145 0.0381 | 0.0162 0 0.0601 | 0 0 0
GGAAACCGCAAAGAC | 0.176 | 0.115 0.161 0.133 | 0 0.0223 0.0601 | 0 0 0

Samples held 43,870 to 66,106 reads, so the smallest values rest on one or two reads.
Wild type was 33.9 per thousand in the pool and the most common sequence in every sample (inoculated region 202, 200, 159; leaf margin 724, 746, 710; systemic leaves 856, 883, 880).
Sequences that differ at fixed positions probably stem from PCR or sequencing errors, and defective variants can be carried along by functional ones.